Anti-infective test results gathered from many reports (values: NIAID ChemDB through PubChem).

Common to all: enzyme or target tests; species: HIV-1; protein: Reverse transcriptase; measure: Ki

Conditions beyond the fields shown may differ between rows.

{"SMILES": "Nc1nc(=O)n([C@H]2CS[C@@H](COP(=O)(O)OP(=O)(O)OP(=O)(O)O)O2)cc1F", "value": "2.5 µM"}
{"SMILES": "Nc1ccn([C@@H]2O[C@H](CO)C[C@@H]2F)c(=O)n1", "value": "0.071 µM"}
{"SMILES": "O=P(O)(O)OP(=O)(O)O", "method": "nucleotide incorporation / radiometric", "mutations": "RT-D113E", "value": "425 µM"}
{"SMILES": "Cn1c(=O)c2[nH]c(NCC34CC5CC(CC(C5)C3)C4)nc2n(C)c1=O", "method": "RT activity / radiometric", "value": "50 µM"}
{"SMILES": "Nc1ccn([C@@H]2CS[C@H](COP(=O)(O)OP(=O)(O)OP(=O)(O)O)O2)c(=O)n1", "method": "nucleotide incorporation", "value": "0.34 µM"}
{"SMILES": "CCc1c(Cc2ccccc2)nc(SCSC)[nH]c1=O", "method": "scintillation proximity", "value": "2 µM"}
{"SMILES": "C=Cc1cc(N(C)C)nc(SCc2ccc(OC)cc2)n1", "method": "nucleotide incorporation / radiometric", "mutations": "RT-Y181I", "value": ">400 µM"}
{"SMILES": "Nc1ccn([C@H]2CS[C@@H](COP(=O)(O)OP(=O)(O)OP(=O)(O)O)O2)c(=O)n1", "method": "nucleotide incorporation", "value": "0.54 µM"}
{"SMILES": "Nc1ncnc2c1ncn2[C@H]1CC[C@@H](COP(=O)(O)OP(=O)(O)OP(=O)(O)O)O1", "method": "nucleotide incorporation / radiometric", "mutations": "RT-1(IIIB)", "strain or isolate": "IIIB", "value": "0.24 µM"}
{"SMILES": "Cc1cc(C)cc(S(=O)(=O)c2c(C(N)=O)[nH]c3ccc(Cl)c(F)c23)c1", "method": "RT activity / nucleotide incorporation", "mutations": "K103N", "value": "0.36 µM"}
{"SMILES": "O=c1[nH]c(=O)n([C@H]2C[C@H](O)[C@@H](COP(=O)(O)OP(=O)(O)OP(=O)(O)O)O2)cc1I", "method": "nucleotide incorporation", "strain or isolate": "LAV", "value": "1.8 µM"}
{"SMILES": "Cc1cn([C@H]2CC[C@@H](COP(=O)(O)OP(=O)(O)OP(=O)(O)O)O2)c(=O)[nH]c1=O", "method": "nucleotide incorporation", "mutations": "RT-K65R", "value": ">50 µM"}
{"SMILES": "CCOP(=O)(Cc1ccccc1)OC1C=CC(n2ccc(=O)[nH]c2=O)C1", "method": "RT activity", "value": ">100 µM"}
{"SMILES": "NCCCCNc1nc(Cc2ccccc2)cc(=O)[nH]1", "mutations": "RT-Y181L", "value": ">1000 µM"}
{"SMILES": "Cc1cc(C)cc(S(=O)(=O)c2c(C(N)=O)[nH]c3ccc(F)c(F)c23)c1", "method": "nucleotide incorporation / radiometric", "strain or isolate": "WT", "value": "0.0022 µM"}
{"SMILES": "CCC(c1nc(N(C)C)[nH]c(=O)c1C)c1c(F)cccc1F", "method": "nucleotide incorporation", "mutations": "Y188L", "value": ">20 µM"}
{"SMILES": "CSCSc1nc(Cc2ccccc2)c(C(C)C)c(=O)[nH]1", "method": "scintillation proximity", "value": "0.56 µM"}
{"SMILES": "CCOP(=O)(Cc1ccccc1)OC1C=CC(n2ccc(=O)n(Cc3ccccc3)c2=O)C1", "method": "RT activity", "value": ">100 µM"}
{"SMILES": "Cc1cn([C@H]2CC[C@@H](COP(=O)(O)OP(=O)(O)OP(=O)(O)O)O2)c(=O)[nH]c1=O", "method": "nucleotide incorporation / radiometric", "mutations": "RT-A62V V75I F77L F116Y Q151M", "value": "0.61 µM"}
{"SMILES": "O=C(CSc1nc2c(ncn2[C@H]2C[C@H](O)[C@@H](COP(=O)(O)OP(=O)(O)OP(=O)(O)O)O2)c2nccn12)c1ccc(F)cc1", "method": "radiometric", "value": "10 µM"}
{"SMILES": "Nc1ncnc2c1ncn2[C@H]1CC[C@@H](COP(=O)(O)OP(=O)(O)OP(=O)(O)O)O1", "method": "nucleotide incorporation", "value": ">100 µM"}
{"SMILES": "[N-]=[N+]=Nc1ccc(C(=O)CSc2nc3c(ncn3[C@H]3C[C@H](O)[C@@H](COP(=O)(O)OP(=O)(O)OP(=O)(O)O)O3)c3nccn23)cc1", "method": "radiometric", "value": "8 µM"}
{"SMILES": "Cn1c(=O)c2[nH]c(NCC(O)C34CC5CC(CC(C5)C3)C4)nc2n(C)c1=O", "method": "RT activity / radiometric", "value": ">200 µM"}
{"SMILES": "Nc1ccn([C@H]2CC[C@@H](COP(=O)(O)OP(=O)(O)OP(=O)(O)O)O2)c(=O)n1", "value": "0.038 µM"}
{"SMILES": "O=c1ccn(C2C=CC(OP(=O)(Cc3ccccc3)OCc3ccccc3)C2)c(=O)[nH]1", "method": "RT activity", "value": ">100 µM"}
{"SMILES": "O=c1ccn([C@H]2C[C@H](O)[C@@H](COP(=O)(O)OP(=O)(O)OP(=O)(O)O)O2)c(=O)[nH]1", "method": "nucleotide incorporation", "strain or isolate": "LAV", "value": "2.5 µM"}
{"SMILES": "O=c1cc(Cc2ccccc2)nc(NCCCCO)[nH]1", "mutations": "RT-V179D", "value": ">1000 µM"}
{"SMILES": "Nc1nc2c(ncn2[C@H]2CO[C@@H](COP(=O)(O)OP(=O)(O)OP(=O)(O)O)O2)c(=O)[nH]1", "method": "radiometric", "strain or isolate": "WT", "value": "0.05 µM"}
{"SMILES": "C=Cc1nc(SC)nc(N(C)C)c1Cl", "method": "nucleotide incorporation / radiometric", "mutations": "RT-Y181I", "value": ">400 µM"}
{"SMILES": "Cc1c(Cc2ccccc2)nc(SCCCCO)[nH]c1=O", "mutations": "RT-Y181I", "value": "578 µM"}
{"SMILES": "[B-][P@](=O)(OC[C@H]1O[C@@H](n2cc(C)c(=O)[nH]c2=O)C[C@@H]1N=[N+]=[N-])OP(=O)(O)OP(=O)(O)O", "method": "fluorescence", "value": "0.009 µM"}
{"SMILES": "[N-]=[N+]=Nc1c(F)c(F)c(C(=O)CSc2nc3c(ncn3[C@H]3C[C@H](O)[C@@H](COP(=O)(O)OP(=O)(O)OP(=O)(O)O)O3)c3nccn23)c(F)c1F", "method": "radiometric", "value": "7.4 µM"}
{"SMILES": "Cc1cc(C)cc(S(=O)(=O)c2c(C(N)=O)[nH]c3ccc(Cl)cc23)c1", "method": "nucleotide incorporation / radiometric", "value": "0.0003 µM"}
{"SMILES": "Nc1ncnc2c1ncn2[C@@H]1O[C@H](COP(=O)(O)OP(=O)(O)OP(=O)(O)O)[C@H]1CO", "value": "0.85 µM"}
{"SMILES": "Nc1nc2c(ncn2[C@H]2CC[C@@H](COP(=O)(O)OP(=O)(O)OP(=O)(O)O)O2)c(=O)[nH]1", "method": "nucleotide incorporation", "strain or isolate": "LAV", "value": "0.03 µM"}
{"SMILES": "C=CC(C)(C)c1[nH]c2ccccc2c1C1=C(O)C(=O)C(c2cn3c4c(cccc24)CCC3(C)C)=C(O)C1=O", "method": "binding", "value": "1.5 µM"}

Again, the opening 5 rows:

Nc1nc(=O)n([C@H]2CS[C@@H](COP(=O)(O)OP(=O)(O)OP(=O)(O)O)O2)cc1F ; value: 2.5 µM
Nc1ccn([C@@H]2O[C@H](CO)C[C@@H]2F)c(=O)n1 ; value: 0.071 µM
O=P(O)(O)OP(=O)(O)O ; method: nucleotide incorporation / radiometric ; mutations: RT-D113E ; value: 425 µM
Cn1c(=O)c2[nH]c(NCC34CC5CC(CC(C5)C3)C4)nc2n(C)c1=O ; method: RT activity / radiometric ; value: 50 µM
Nc1ccn([C@@H]2CS[C@H](COP(=O)(O)OP(=O)(O)OP(=O)(O)O)O2)c(=O)n1 ; method: nucleotide incorporation ; value: 0.34 µM